Publication PMC10815238, “New N-Terminal Fatty-Acid-Modified Melittin Analogs with Potent Biological Activity” (International Journal of Molecular Sciences, 2024)
Values after ≈ are worked out from the molar mass of the structure shown.

System: Listeria monocytogenes (L. monocytogenes) CVCC 3764
Assay type: cell-based
Conditions: NB medium, 37 °C, 18 h, three independent measurements
Description: MIC was determined using the broth microdilution method with minor modification. In brief, bacteria (S. aureus ATCC 43300, E. faecalis ATCC 29212, E. coli ATCC 25922, P. aeruginosa ATCC 27853, L. monocytogenes CVCC 3764, B. cereus CVCC 4101, S. Castellani CGMCC 1.1869, and the multidrug-resistant E. coli strain) were cultured in nutrient broth (NB) medium (Macklin, Shanghai, China) to the logarithmic phase and diluted to 1 × 10^6 colony forming units (CFUs)/mL. The MDLs were dissolved to a final concentration of 256~0.25 μg/mL in NB medium using two-fold dilutions. A total of 50 μL of different concentrations of the MDL solutions and an equal volume of bacterial suspension were added to a 96-well plate, which was then incubated at 37 °C for 18 h. The minimum concentrations of the MDLs with no visible growth of bacteria were defined as the corresponding MICs. Media containing bacteria without the MDLs were set as the negative control. Each measurement was performed independently three times.

SMILES: CC[C@H](C)[C@H](NC(=O)CN)C(=O)NCC(=O)N[C@@H](C)C(=O)N[C@H](C(=O)N[C@@H](CC(C)C)C(=O)N[C@@H](CCCCN)C(=O)N[C@H](C(=O)N[C@@H](CC(C)C)C(=O)N[C@H](C(=O)N[C@H](C(=O)NCC(=O)N[C@@H](CC(C)C)C(=O)N1CCC[C@H]1C(=O)N[C@@H](C)C(=O)N[C@@H](CC(C)C)C(=O)N[C@H](C(=O)N[C@@H](CO)C(=O)N[C@@H](Cc1c[nH]c2ccccc12)C(=O)N[C@H](C(=O)N[C@@H](CCCCN)C(=O)N[C@@H](CCCNC(=N)N)C(=O)N[C@@H](CCCCN)C(=O)N[C@@H](CCCNC(=N)N)C(=O)N[C@@H](CCC(N)=O)C(=O)N[C@@H](CCC(N)=O)C(N)=O)[C@@H](C)CC)[C@@H](C)CC)[C@@H](C)O)[C@@H](C)O)C(C)C)C(C)C [Mel, Melittin]
- MIC: 32 µg/mL (≈ 11.2 µM)
